Source: the supplement of paper PMC9931576
Human monoclonal antibodies against the spike receptor-binding domain (heavy:light variable regions). IC50 against pseudoviruses bearing the spike of naturally observed variants; lower = stronger; >10 µg/ml means not reached at the top dose. No active / inactive call. The stated detection limit is 0.0005 µg/ml; values near or below 0.001 µg/ml lie at the floor of the assay.

B1: BD58-0531 (protein)
chain 1: EVQLVESGGGLVKPGGSLRLSCAASGFTFSNAWMSWVRQAPGKGLEWVGRIKRKSDGGTTDYAAPVKGRFTISRDESKNTLYLQMNSLKTEDTAIYYCTTDRGIQLWIYGMDVWGQGTTVTVSS
chain 2: SYELTQPPSVSVSPGQTARITCSGDALPIQYAYWYQQKPGQAPVLVIYKDSERPSGIPERISGSSSGTTVTLTISGVQAEDEADYYCQSADSSGSYVVFGGGTKLTVL
B2: BD58-0533 (protein)
chain 1: EVQLVQSGAEVKKPGESLKVSCKGSGYNFTRYWIGWVRQMPGKGLEWMGIIYPGNSDTTYSPSFQGQVTISADKSISTAYLQWSSLKASDSAMYYCARHGALDPTDYYYGMDVWAQGTTVTVSS
chain 2: DIQMTQSPSSLSASVGDRVTITCRASHGISNYLNWYQQKPGKAPKLLIYAASSLQSGVPSRFSGGGSGTDFTLTISSLQPEDFATYYCQQSYSTLFTFGPGTKVDIK
B3: BD58-0537 (protein)
chain 1: QLQLQESGPGLVKPSETLSLTCNVSGGSINNKNCYWGWIRQPPGKGLEWTGSVYYSGYTYYNPSLKSRVTISVDTSKNQFSLKLSSVTAADTAVYYCVANSGSYEDFHHYYAMDVWGQGTTVTVSS
chain 2: QSVLTQPPSVSGAPGQRVTISCTGSSSNIGAGYDVHWYQQLPGTAPKLLIYDNINRPSGVPDRFSGSKSATSASLAITGLQAEDEADYYCQSYDSSLSGSVFGGGTKLTVL
B4: BD58-0525 (protein)
chain 1: QVQLVESGGGVVQPGRSLRLSCAASGFIFSNYGMHWVRQAPGKGLEWVAVIWYDTSNKYYADSVKGRFTISRDNSKNTLYLQMNSLRAEDTAVYYCAKDIAAYCAGECHGALSWGQGTLVTVSS
chain 2: SYVLTQPPSVSVAPGQTARITCGGKNIGRKSVHWYQQKSGQAPVLVVFDDSDRPSGIPERFSGSNSGNTATLTISRVEAGDEADYYCQVWDTSSDLPGVFGGGTKLTVL
B5: BD58-0540 (protein)
chain 1: QVQLQESGPRLVKPSETLSLTCTVSGDSISGYYWSWIRQPPGKGLEWIGYIYVSGSADYNPSLNSRVTISVDTSKNQFSLKLISVTAADTAVYYCAKGNNGGDWFDPWGQGTLVTVSS
chain 2: DIVMTQSPDSLAVSLGERATINCKSSQSVLYSSNNQNYLVWYQQKPGQPPKLLIYWASTRESGVPDRFSGSGSGTDFTLTISSLQAEDVAVYYCQQYYSTPLTFGGGTKVEIK

Target: SARS-CoV-2 Omicron BA.1 spike pseudovirus
Assay: pseudovirus neutralization IC50; higher = weaker neutralization
Protocol: (§1)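 Single-round VSV luciferase pseudovirus mixed with antibody dilutions for 1 h and put on Huh-7 cells for about a day; IC50 from the dose curve.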

Compared with B1, B2 is higher in “pseudovirus neutralization IC50” value: 0.00762 µg/mL for the first, over 10 µg/mL for the second.

Going from B3 to B4, the “pseudovirus neutralization IC50” value rises from 0.0804 µg/mL to over 10 µg/mL.

B5 was tested, and the “pseudovirus neutralization IC50” value was 0.00154 µg/mL.

Target: SARS-CoV-2 Omicron BA.2 spike pseudovirus
Assay: as above
Protocol: as §1

First: B1
Second: B2
The “pseudovirus neutralization IC50” value of the first is 150-fold higher: 0.323 µg/mL for the first, 0.00219 µg/mL for the second.

First: B3
Second: B4
The “pseudovirus neutralization IC50” value of the first is 1500-fold lower: 0.00112 µg/mL for the first, 1.72 µg/mL for the second.

With B5 the “pseudovirus neutralization IC50” value was 0.689 µg/mL.

Target: SARS-CoV-2 Omicron BA.2.75 spike pseudovirus
Assay: as above
Protocol: as §1

First: B1
Second: B2
The “pseudovirus neutralization IC50” value of the first is 1.7-fold lower: 0.0863 µg/mL for the first, 0.145 µg/mL for the second.

First: B3
Second: B4
The “pseudovirus neutralization IC50” value of the first is lower: 0.0149 µg/mL for the first, over 10 µg/mL for the second.

In the case of B5, the “pseudovirus neutralization IC50” value is reported as over 10 µg/mL.

Target: SARS-CoV-2 Omicron BA.2.75.2 spike pseudovirus
Assay: as above
Protocol: as §1

B1 and B2 are within 1.5-fold of each other in “pseudovirus neutralization IC50” value: 0.108 µg/mL for the first, 0.141 µg/mL for the second.

Compared with B3, B4 is higher in “pseudovirus neutralization IC50” value: 0.0177 µg/mL for the first, over 10 µg/mL for the second.

B5 was tested, and the “pseudovirus neutralization IC50” value was over 10 µg/mL.

Target: SARS-CoV-2 Omicron BA.5 spike pseudovirus
Assay: as above
Protocol: as §1

Compared with B1, B2 is 26-fold lower in “pseudovirus neutralization IC50” value: 0.0902 µg/mL for the first, 0.00347 µg/mL for the second.

Going from B3 to B4, the “pseudovirus neutralization IC50” value rises from 0.00375 µg/mL to 0.395 µg/mL (110-fold).

In the case of B5, the “pseudovirus neutralization IC50” value is reported as over 10 µg/mL.

Target: SARS-CoV-2 Omicron BM.1.1.1 spike pseudovirus
Assay: as above
Protocol: as §1

Compared with B1, B2 is 2.5-fold higher in “pseudovirus neutralization IC50” value: 0.0585 µg/mL for the first, 0.148 µg/mL for the second.

First: B3
Second: B4
The “pseudovirus neutralization IC50” value of the first is lower: 0.0161 µg/mL for the first, over 10 µg/mL for the second.

For B5, the “pseudovirus neutralization IC50” value was over 10 µg/mL.

Target: SARS-CoV-2 Omicron BQ.1.1 spike pseudovirus
Assay: as above
Protocol: as §1

Compared with B1, B2 is 32-fold lower in “pseudovirus neutralization IC50” value: 0.264 µg/mL for the first, 0.00827 µg/mL for the second.

First: B3
Second: B4
The “pseudovirus neutralization IC50” value of the first is lower: 0.0114 µg/mL for the first, over 10 µg/mL for the second.

In the case of B5, the “pseudovirus neutralization IC50” value is reported as over 10 µg/mL.

Target: SARS-CoV-2 Omicron BR.2 spike pseudovirus
Assay: as above
Protocol: as §1

Going from B1 to B2, the “pseudovirus neutralization IC50” value rises from 0.0448 µg/mL to 0.163 µg/mL (3.6-fold).

First: B3
Second: B4
The “pseudovirus neutralization IC50” value of the first is lower: 0.016 µg/mL for the first, over 10 µg/mL for the second.

With B5 the “pseudovirus neutralization IC50” value was over 10 µg/mL.

Target: SARS-CoV-2 Omicron CA.1 spike pseudovirus
Assay: as above
Protocol: as §1

Compared with B1, B2 is 5.7-fold higher in “pseudovirus neutralization IC50” value: 0.0329 µg/mL for the first, 0.187 µg/mL for the second.

First: B3
Second: B4
The “pseudovirus neutralization IC50” value of the first is lower: 0.0128 µg/mL for the first, over 10 µg/mL for the second.

In the case of B5, the “pseudovirus neutralization IC50” value is reported as over 10 µg/mL.

Target: SARS-CoV-2 Omicron XBB spike pseudovirus
Assay: as above
Protocol: as §1

Compared with B1, B2 is higher in “pseudovirus neutralization IC50” value: 0.0797 µg/mL for the first, over 10 µg/mL for the second.

Going from B3 to B4, the “pseudovirus neutralization IC50” value rises from 0.0117 µg/mL to over 10 µg/mL.

For B5, the “pseudovirus neutralization IC50” value was over 10 µg/mL.

Target: SARS-CoV-2 early D614G spike pseudovirus
Assay: as above
Protocol: as §1

B1 and B2 cannot be ordered by “pseudovirus neutralization IC50” value: over 10 µg/mL for the first, over 10 µg/mL for the second.

B3 and B4 cannot be ordered by “pseudovirus neutralization IC50” value: over 10 µg/mL for the first, over 10 µg/mL for the second.

In the case of B5, the “pseudovirus neutralization IC50” value is reported as over 10 µg/mL.
